Results deposited as PubChem BioAssay AID624099 (ICCB-Longwood, 2012)
In all, the deposit lists about 21,000 reagents; shown is an unselected part. Over the whole deposit, 497 (2.4%) got an active call. 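Higher z means weaker E2 silencing; only reporter increases were scored, and knock-downs that hurt cell survival may mask genuine repressor factors.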 A number with no mark means an inactive call.

- Test: 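Human genes that papillomavirus E2 requires to repress the HPV18 LCR promoter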 (primary screen)
- Cell system: human C33A cervical carcinoma cells (HPV-negative) stably expressing BPV1 E2 and an HPV18 LCR luciferase reporter
- Reagent: siRNA pool against human genes, 40 nM
- Timing: 72 h
- Measurement: 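Per-well luciferase luminescence, z-scored on each plate against the plate mean and SD with control wells left out, then averaged across three replicate plates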
- Direction: mean z-score and z-score: higher = stronger reporter signal, weaker E2 silencing
- Rule for the call: 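Hit if mean z-score reaches 2 and two or more of three replicate z-scores also reach 2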

gene	PubChem SID	mean z-score	z-score, replicate A	z-score, replicate B	z-score, replicate C
UTP11 (UTP11 small subunit processome component)	SID134324638	-0.37	-0.51	-0.04	-0.56
HSD17B3 (hydroxysteroid 17-beta dehydrogenase 3)	SID134313064	-1.33	-0.89	-1.35	-1.74
CD68 (CD68 molecule)	SID134315589	1.06	0.91	1.08	1.2
WDR87 (WD repeat domain 87)	SID134328907	-0.58	-0.55	-0.92	-0.27
RPS6KA1 (ribosomal protein S6 kinase A1)	SID56478477	0.17	-0.63	0.66	0.49
ZNF513 (zinc finger protein 513)	SID134312249	0.71	0.74	0.58	0.79
CATSPER3 (cation channel sperm associated 3)	SID134313385	0.53	0.91	0.33	0.34
FAM21D (retired record)	SID134328179	0.33	0.03	0.19	0.77
MOSMO (modulator of smoothened)	SID134322354	-1.76	-1.7	-2.03	-1.55
ZHX3 (zinc fingers and homeoboxes 3)	SID134318322	-0.83	-1.15	-0.87	-0.46
RAD1 (RAD1 checkpoint DNA exonuclease)	SID56478633	0.59	0.62	0.68	0.47
ARID1A (AT-rich interaction domain 1A)	SID134321209	1.5	1.68	1.2	1.61
DNAAF2 (dynein axonemal assembly factor 2)	SID134324535	-0.79	-1.12	-0.94	-0.31
HMGCLL1 (3-hydroxy-3-methylglutaryl-CoA lyase like 1)	SID134326278	0.16	0.03	0.08	0.36
LOC401520 (retired record)	SID134328064	0.17	0.28	0.12	0.11
PRR15L (proline rich 15 like)	SID134318499	1.12	1.51	1	0.85
TM4SF4 (transmembrane 4 L six family member 4)	SID134316280	1.61	1.46	1.77	1.6
USP30 (ubiquitin specific peptidase 30)	SID134324887	0.19	0.26	0.18	0.14
MAPK4 (mitogen-activated protein kinase 4)	SID56478706	-0.47	-0.29	-0.71	-0.42
MOGS (mannosyl-oligosaccharide glucosidase)	SID134316510	0.85	0.84	0.8	0.9
MAOB (monoamine oxidase B)	SID134314794	0.65	0.56	0.78	0.6
TMEM61 (transmembrane protein 61)	SID134322769	-0.62	-0.24	-0.93	-0.7
RPL9 (ribosomal protein L9)	SID134315497	0.9	0.91	0.79	0.99
PCLO (piccolo presynaptic cytomatrix protein)	SID134327789	0.4	-0.45	2.3	-0.66
BTNL3 (butyrophilin like 3)	SID134324945	0.58	0.72	0.7	0.32
CHPF2 (chondroitin polymerizing factor 2)	SID134326339	1.76	1.58	2.01	1.68
NUP85 (nucleoporin 85)	SID134318628	1.12	0.69	1.55	
TMEM176A (transmembrane protein 176A)	SID134322966	-0.24	-0.19	-0.34	-0.18
CD1C (CD1c molecule)	SID134323284	0.64	0.91	0.48	0.53
TMED7 (transmembrane p24 trafficking protein 7)	SID134312793	0.13	0.19	0.05	0.14
PSMC2 (proteasome 26S subunit, ATPase 2)	SID134313078	-0.97	-1.17	-0.78	-0.95
DNAJB2 (DnaJ heat shock protein family (Hsp40) member B2)	SID134321603	-0.81	-0.46	-0.88	-1.08
RUSC1-AS1 (RUSC1 antisense RNA 1)	SID134322050	-3.47	-3.74	-3.26	-3.41
CCNL2 (cyclin L2)	SID134318790	-0.39	-0.67	-0.14	-0.37
GRM8 (glutamate metabotropic receptor 8)	SID134311063	-1.87	-1.69	-2.23	-1.69
SHARPIN (SHANK associated RH domain interactor)	SID134322426	1.56	1.19	1.83	1.66
ZNF8 (zinc finger protein 8)	SID134318302	0.37	0.33	0.33	0.44
RBM4 (RNA binding motif protein 4)	SID134323366	-0.05	0.03	-0.18	-0.01
FAM240C (family with sequence similarity 240 member C)	SID134325637	0.2	0.04	0.26	0.29
SLC22A20P	SID134329845	1.58	1.42	1.83	1.5
ZNF92 (zinc finger protein 92)	SID134324905	-0.5	-0.56	-0.27	-0.68
MAP7D2 (MAP7 domain containing 2)	SID134320260	-0.73	-0.52	-0.77	-0.9
RPL18P4 (ribosomal protein L18 pseudogene 4)	SID134326369	2.09 (active)	1.88	2.06	2.33
RPL18P4 (ribosomal protein L18 pseudogene 4)	SID134327919	1.38	1.08	1.79	1.27
ANKRD31 (ankyrin repeat domain 31)	SID134326090	-1.86	-1.71	-1.74	-2.12
AADACP1 (arylacetamide deacetylase pseudogene 1)	SID134325769	-1	-1.01	-1.14	-0.85
PLAT (plasminogen activator, tissue type)	SID134311423	-1.13	-1.32	-1.24	-0.84
TSPAN5 (tetraspanin 5)	SID134315129	-0.29	-0.15	-0.47	-0.23
DGCR6L (DiGeorge syndrome critical region gene 6 like)	SID134317917	-1.98	-1.96	-2.18	-1.81
SLC35G3	SID134320412	-0.42	0.23	-0.56	-0.91
IFIT3 (interferon induced protein with tetratricopeptide repeats 3)	SID134321608	-0.14	-0.6	-0.04	0.23
PDE3B (phosphodiesterase 3B)	SID134312690	0.41	0.85	0.08	0.31
LOC390427 (retired record)	SID134328425	-0.83	-0.76	-0.82	-0.91
KRABD3 (KRAB domain containing 3)	SID134326335	0.02	0.06	0.18	-0.17
ZNF473 (zinc finger protein 473)	SID134325833	0.06	0.17	0.16	-0.16
IQCF1 (IQ motif containing F1)	SID134320323	-1.91	-1.84	-1.94	-1.93
OTUD7B (OTU deubiquitinase 7B)	SID134313528	-1.26	-1.47	-1.08	-1.24
CEACAM3 (CEA cell adhesion molecule 3)	SID134323294	0.67	0.66	0.72	0.64
IL17RC (interleukin 17 receptor C)	SID134312880	0.57	0.79	0.68	0.24
KCNMA1 (potassium calcium-activated channel subfamily M alpha 1)	SID134311685	0.18	0.36	-0.07	0.26
MYO1F (myosin IF)	SID134321627	-0.41	-0.42	-0.52	-0.3
CASKIN1 (CASK interacting protein 1)	SID134318208	-0.98	-0.98	-0.91	-1.05
NXPE1 (neurexophilin and PC-esterase domain family member 1)	SID134319999	1.17	1.5	0.73	1.28
ADGB (androglobin)	SID134327633	0.64	0.58	0.76	0.59
TNFSF13B (TNF superfamily member 13b)	SID134321515	-0.51	-0.44	-0.56	-0.54
ZDHHC9 (zDHHC palmitoyltransferase 9)	SID134324632	-0.39	-0.42	-0.31	-0.44
SH2B1 (SH2B adaptor protein 1)	SID134318141	-1.47	-1.39	-1.52	-1.5
UBTFL6 (UBTF like 6 (pseudogene))	SID134325423	-0.14	0.02	0.46	-0.89
JKAMP (JNK1/MAPK8 associated membrane protein)	SID134320850	-1.08	-0.43	-1.23	-1.57
ING2-DT (ING2 divergent transcript)	SID134327452	1.03	1.09	1.42	0.59
SLC29A2	SID134312552	-0.18	-0.39	-0.16	0.01
LOC392666 (retired record)	SID134327852	-0.63	-0.64	-0.48	-0.76
LPAR5 (lysophosphatidic acid receptor 5)	SID134310548	-1.28	-1.14	-1.35	-1.35

12 entries from above, limited to “z-score, replicate C”:
PSMC2 (proteasome 26S subunit, ATPase 2) [SID134313078]	-0.95
DNAJB2 (DnaJ heat shock protein family (Hsp40) member B2) [SID134321603]	-1.08
RUSC1-AS1 (RUSC1 antisense RNA 1) [SID134322050]	-3.41
CCNL2 (cyclin L2) [SID134318790]	-0.37
GRM8 (glutamate metabotropic receptor 8) [SID134311063]	-1.69
SHARPIN (SHANK associated RH domain interactor) [SID134322426]	1.66
ZNF8 (zinc finger protein 8) [SID134318302]	0.44
RBM4 (RNA binding motif protein 4) [SID134323366]	-0.01
FAM240C (family with sequence similarity 240 member C) [SID134325637]	0.29
SLC22A20P [SID134329845]	1.5
ZNF92 (zinc finger protein 92) [SID134324905]	-0.68
MAP7D2 (MAP7 domain containing 2) [SID134320260]	-0.9
